A mixed list of measured activities; the numbers were collected in NIAID ChemDB.

Common to all: growth or infection tests

Lines come from different laboratories, so protocols vary. A number after MIC or MFC names an inhibition level or a share of isolates. An empty or dashed field is not shown.

SMILES,method,read-out,species,strain,conditions,value
CN[C@@H]1[C@H](O[C@H]2[C@H](O[C@H]3[C@H](O)[C@@H](O)[C@H](N=C(N)N)[C@@H](O)[C@@H]3N=C(N)N)O[C@@H](C)[C@]2(O)C=O)O[C@@H](CO)[C@H](O)[C@H]1O,broth dilution / resazurin,MIC,Mycobacterium aurum,-,-,0.195 µg/mL
Cc1ccc2oc(=S)n(-c3cccc(Cl)c3)c(=S)c2c1,-,MIC,Mycobacterium kansasii,6509/96,14 d,2 µM
O=C(NNC(=O)c1ccncc1)Nc1ccc(F)c(C(F)(F)F)c1,broth dilution,MIC100,Mycobacterium kansasii,My 6509/96,7 d,62.5 µM
O=c1oc2ccc(Br)cc2c(=S)n1-c1cccc(F)c1,-,MIC,Mycobacterium kansasii,6509/96,14 d,8 µM
CCCCCc1ccc(NC(=O)NNC(=O)c2ccncc2)cc1,broth dilution,MIC100,Mycobacterium kansasii,My 235/80,21 d,125 µM
COc1ccc2oc(=S)n(-c3ccc(C)cc3)c(=S)c2c1,-,MIC,Mycobacterium kansasii,My 235/80,14 d,16 µM
CC1COc2c(N3CCN(C)CC3)c(F)cc3c(=O)c(C(=O)O)cn1c23,-,MIC90,Mycoplasma hominis,20 strains,-,0.5 µg/mL
CO[C@@]1(NC(=O)CCCC(N)C(=O)O)C(=O)N2C(C(=O)O)=C(COC(C)=O)CSC21,-,MIC,Mycobacterium fortuitum,4-May,-,>100 µg/mL
COc1ccc2oc(=O)n(-c3cccc(Cl)c3)c(=S)c2c1,-,MIC,Mycobacterium kansasii,My 235/80,14 d,16 µM
CCc1nc2ccc(Cl)cn2c1C(=O)NCc1ccc(N2CCSCC2)c(F)c1,resazurin,MIC,Mycobacterium intracellulare,ATCC 13950,-,0.0156 µg/mL
c1ccc2c(Nc3ccc(NCCN4CCOCC4)cc3)ncnc2c1,luminescence,MIC50,Mycobacterium bovis BCG,-,-,>10 µM
CCCCCCCCCCCCN(C(=O)Nc1cccc(C(C)=O)c1)[C@@H](CC(=O)OCC)C1O[C@@H]2OC(C)(C)O[C@@H]2[C@H]1Oc1ccccc1,-,MIC,Mycobacterium aurum,-,-,>25 µg/mL
Cc1ccc(CCNc2ncnc3ccccc23)cc1,luminescence,MIC50,Mycobacterium bovis BCG,-,-,>10 µM
NNC(=O)COc1ccc(-c2n[nH]c(C(F)(F)F)c2-c2ccc(Br)cc2)c(O)c1,visual reading,MIC,Mycobacterium marinum,-,-,>50 µg/mL
Cc1ccc2nc(C)c(C(=O)NCc3ccc(C(F)(F)F)cc3)n2c1,resazurin,MIC,Mycobacterium intracellulare,-,-,<2 µM
Fc1ccc(N2CCN(c3ccc(Nc4ncnc5ccsc45)cc3)CC2)cc1,luminescence,MIC50,Mycobacterium bovis BCG,-,-,>10 µM
COc1ccc(-c2c(-c3ccc(OC)c(C)c3O)n[nH]c2C(F)(F)F)cc1,visual reading,MIC,Mycobacterium marinum,-,-,>50 µg/mL
Fc1cc(N2CCN(c3ccc(C(F)(F)F)cn3)CC2)ccc1CNc1ncnc2ccccc12,luminescence,MIC50,Mycobacterium bovis BCG,-,-,>20 µM
CO[C@@]1(NC(=O)Cn2cnnn2)C(=O)N2C(C(=O)O)=C(CSc3nnc(C)s3)CSC21,-,MIC,Mycobacterium fortuitum,1263,-,100 µg/mL
CCCCCCCCCCCCCCCCO/N=C1\[C@H](C)CC(C)(O)[C@H](O[C@@H]2O[C@H](C)C[C@H](N(C)C)[C@H]2O)[C@@H](C)[C@H](OC2C[C@@](C)(OC)[C@@H](O)[C@H](C)O2)[C@@H](C)C(=O)O[C@H](CC)[C@@](C)(O)[C@H](O)[C@H]1C,-,MIC,Mycobacterium avium complex,20092 (clarithromycin-resistant),-,>50 µg/mL
O=c1oc2ccc(F)cc2c(=S)n1-c1ccccc1,-,MIC,Mycobacterium kansasii,My 235/80,14 d,0.5 µM
CO[C@@]1(NC(=O)Cc2cccs2)C(=O)N2C(C(=O)O)=C(COC(N)=O)CS[C@@H]21,-,MIC,Mycobacterium fortuitum,1261,-,12.5 µg/mL
CC(C)=CCC/C(C)=C/CNc1ncnc2ccccc12,luminescence,MIC50,Mycobacterium bovis BCG,-,-,>20 µM
COc1ccc(-c2n[nH]c(C(F)(F)F)c2-c2ccccc2OC)c(O)c1,visual reading,MIC,Mycobacterium marinum,-,-,50 µg/mL
Fc1ccc2c(Nc3ccc(Oc4ccc(Cl)c(Cl)c4)cc3)ncnc2c1,luminescence,MIC50,Mycobacterium bovis BCG,-,-,>20 µM
CC[C@H]1OC(=O)[C@H](C)[C@@H](OC2C[C@@](C)(OC)[C@@H](O)[C@H](C)O2)[C@H](C)[C@@H](O[C@@H]2O[C@H](C)C[C@H](N(C)C)[C@H]2O)C(C)(O)C[C@@H](C)/C(=N\OCCCCc2ccccc2)[C@H](C)[C@@H](O)[C@]1(C)O,-,MIC,Mycobacterium avium complex,20092 (clarithromycin-resistant),-,6.25 µg/mL
CCCCCCCCCCCCN(C(=O)Nc1ccc(F)cc1)[C@@H](CC(=O)OCC)C1O[C@@H]2OC(C)(C)O[C@@H]2[C@H]1Oc1ccccc1,-,MIC,Mycobacterium aurum,-,-,>25 µg/mL
CC[C@H]1OC(=O)[C@H](C)[C@@H](OC(=O)C(C)C)[C@H](C)[C@@H](O[C@@H]2O[C@H](C)C[C@H](N(C)C)[C@H]2O)C(C)(O)C[C@@H](C)/C(=N\OCCCOc2ccccc2)[C@H](C)[C@@H](O)[C@]1(C)O,-,MIC,Mycobacterium avium complex,20039 (clarithromycin-susceptible),-,3.13 µg/mL
CCCCCCCCCCCCCCCCCCNC(=O)NC(CCC(=O)O)(CCC(=O)O)CCC(=O)O,-,MIC,Mycobacterium abscessus,AAy-P-1,-,9 µg/mL
Cc1ccn2c(C(=O)NCc3ccc(N4CCN(c5ccc(C(F)(F)F)cc5)CC4)c(F)c3)c(C)nc2c1,resazurin,MIC,Mycobacterium intracellulare,ATCC 13950,-,0.03125 µg/mL
Fc1ccc2ncnc(NCCc3ccc(OC(F)(F)F)cc3)c2c1,luminescence,MIC50,Mycobacterium bovis BCG,-,-,>20 µM
CCCCCCCCCC(CCCCCCCCC)NC(=O)NC(CCC(=O)O)(CCC(=O)O)CCC(=O)O,-,MIC,Mycobacterium chelonae,EO-P-1,-,108 µg/mL
CC[C@H]1OC(=O)[C@H](C)[C@@H](O)[C@H](C)[C@@H](O[C@@H]2O[C@H](C)C[C@H](N(C)C)[C@H]2O)C(C)(O)C[C@@H](C)/C(=N\OCCCOc2ccccc2)[C@H](C)[C@@H](O)[C@]1(C)O,-,MIC,Mycobacterium avium complex,20039 (clarithromycin-susceptible),-,>50 µg/mL
Cc1cn2c(C(=O)NCc3ccc(N4CCN(c5ccc(C(F)(F)F)cn5)CC4)c(F)c3)c(C)nc2s1,resazurin,MIC,Mycobacterium intracellulare,-,-,<2 µM
FC(F)(F)c1ccc(Oc2ccc(Nc3ncnc4[nH]ccc34)cc2)cc1,luminescence,MIC50,Mycobacterium bovis BCG,-,-,1.68 µM
CC(C)N=C(N)/N=C(\N)NOCCCOc1cc(Cl)c(Cl)cc1Cl,-,MIC,Mycobacterium avium complex,101,-,32 µg/mL
CCCCCCCC(CCCCCCC)OC(=O)NC(CCC(=O)O)(CCC(=O)O)CCC(=O)O,-,MIC,Mycobacterium marinum,ATCC 927,-,420 µg/mL
CCc1nc(N)nc(N)c1-c1ccc(Cl)cc1,-,MIC,Mycobacterium avium complex,DW9,-,32 µg/mL
CCCCCCCCCCCCCCCCCCCCCCCC(=O)NC(CCC(=O)O)(CCC(=O)O)CCC(=O)O,-,MIC,Mycobacterium abscessus,AAy-P-1,-,54 µg/mL
O=C(NNC(=O)c1ccncc1)Nc1ccc(C(F)(F)F)cc1,broth dilution,MIC100,Mycobacterium kansasii,My 235/80,7 d,>125 µM
Fc1ccc2c(Nc3ccc(Oc4ccc(Cl)cc4)cc3)ncnc2c1,luminescence,MIC50,Mycobacterium bovis BCG,-,-,>50 µM
O=C(NNC(=O)c1ccncc1)Nc1ccc(F)c(Cl)c1,broth dilution,MIC100,Mycobacterium kansasii,My 6509/96,21 d,>125 µM
FC(F)(F)c1ccnc(Oc2ccc(Nc3ncnc4ccccc34)cc2)n1,luminescence,MIC50,Mycobacterium bovis BCG,-,-,>20 µM
FC(F)(F)c1ccc(-n2c(=S)oc3ccc(Cl)cc3c2=S)cc1,-,MIC,Mycobacterium kansasii,6509/96,14 d,16 µM
FC(F)(F)c1cccc(CCNc2ncnc3ccsc23)c1,luminescence,MIC50,Mycobacterium bovis BCG,-,-,>50 µM
CCCCCCCCCCCCCCCCCCCCCCC(=O)NC(C)(CCC(=O)O)CCC(=O)O,-,MIC,Mycobacterium chelonae,EO-P-1,-,36 µg/mL
FC(F)(F)Oc1ccc(CCNc2ncnc3sccc23)cc1,luminescence,MIC50,Mycobacterium bovis BCG,-,-,>20 µM
CCCCCCC(=O)O[C@H]1[C@H](C)OC(O[C@H]2[C@H](C)[C@@H](O[C@@H]3O[C@H](C)C[C@H](N(C)C)[C@H]3O)C(C)(O)C[C@@H](C)/C(=N\OCCCOc3ccccc3)[C@H](C)[C@@H](O)[C@](C)(O)[C@@H](CC)OC(=O)[C@@H]2C)C[C@@]1(C)OC,-,MIC,Mycobacterium avium complex,20039 (clarithromycin-susceptible),-,1.56 µg/mL
CCOC(=O)C[C@@H](C1O[C@@H]2OC(C)(C)O[C@@H]2[C@H]1Oc1ccccc1)N(C(=O)Nc1ccc(Cl)cc1)C1CC1,-,MIC,Mycobacterium aurum,-,-,>25 µg/mL
Fc1cc(Nc2nnc(-c3ccncc3)o2)ccc1Br,broth dilution,MIC100,Mycobacterium kansasii,My 235/80,14 d,>125 µM
CCCCCCCCCCCCN1C(=O)N(c2ccc(Cl)cc2)C(=O)C[C@H]1C1OC2OC(C)(C)OC2[C@H]1OC,-,MIC,Mycobacterium aurum,-,-,>25 µg/mL
CCCCCCCCCCCCCCCCCOC(=O)NC(CCC(=O)O)(CCC(=O)O)CCC(=O)O,-,MIC,Mycobacterium abscessus,AAy-P-1,-,72 µg/mL
FC(F)(F)Oc1ccc(Oc2ccc(Nc3ncnc4ccoc34)cc2)cc1,luminescence,MIC50,Mycobacterium bovis BCG,-,-,>20 µM
CC[C@H]1OC(=O)[C@H](C)[C@@H](OC2C[C@@](C)(OC)[C@@H](O)[C@H](C)O2)[C@H](C)[C@@H](O[C@@H]2O[C@H](C)C[C@H](N(C)C)[C@H]2O)C(C)(O)C[C@@H](C)/C(=N\OCCSc2ccccc2)[C@H](C)[C@@H](O)[C@]1(C)O,-,MIC,Mycobacterium avium complex,20039 (clarithromycin-susceptible),-,1.56 µg/mL
Fc1cccc(-n2c(=S)oc3ccc(Br)cc3c2=S)c1,-,MIC,Mycobacterium kansasii,My 235/80,21 d,16 µM
CO[C@@]1(NC(=O)Cc2ccccc2)C(=O)N2C(C(=O)[O-])=C(CSc3nnc(C)s3)CSC21,-,MIC,Mycobacterium fortuitum,1030-8,-,100 µg/mL
CCCCCCCCCCCCCCCCN(C(=O)Nc1ccccc1)[C@@H](CC(=O)OCC)C1O[C@@H]2OC(C)(C)O[C@@H]2[C@H]1OC,-,MIC,Mycobacterium aurum,-,-,>25 µg/mL
CO[C@H]1/C=C/O[C@@]2(C)Oc3c(C)c(O)c4c(=O)c(c5oc6cc(N7CCN(CC(C)C)CC7)cc(=O)c6nc5c4c3=C2O)NC(=O)/C(C)=C\C=C\[C@H](C)[C@H](O)[C@@H](C)[C@@H](O)[C@@H](C)[C@H](OC(C)=O)[C@@H]1C,-,MBC,Mycobacterium ulcerans,Isolate 5143,-,0.025 µg/mL
FC(F)(F)Oc1ccc(CCNc2nc(C3CC3)nc3ccccc23)cc1,luminescence,MIC50,Mycobacterium bovis BCG,-,-,4.7 µM
Cc1ccn2c(C(=O)NCc3ccc(N4CCC(c5ccc(OC(F)(F)F)cc5)CC4)cc3)c(C)nc2c1,resazurin,MIC,Mycobacterium intracellulare,-,-,<2 µM
COc1ccc2oc(=O)n(-c3ccc(Br)cc3)c(=S)c2c1,-,MIC,Mycobacterium kansasii,My 235/80,21 d,32 µM
C[C@@H]1CN(c2c(F)c(N)c3c(=O)c(C(=O)O)cn(C4CC4)c3c2F)C[C@H](C)N1,broth dilution / visual reading,MIC,Mycobacterium xenopi,ATCC 19970,-,0.1 µg/mL
FC(F)(F)c1ccc(Oc2ccc(Nc3ccnc4ccnn34)cc2)cc1,luminescence,MIC50,Mycobacterium bovis BCG,-,-,>10 µM
CC(C)c1ccc(NC(=O)NNC(=O)c2ccncc2)cc1,broth dilution,MIC100,Mycobacterium kansasii,My 6509/96,21 d,16 µM
CC[C@H]1OC(=O)[C@H](C)[C@@H](OC(=O)CCCCCc2ccccc2)[C@H](C)[C@@H](O[C@@H]2O[C@H](C)C[C@H](N(C)C)[C@H]2O)C(C)(O)C[C@@H](C)/C(=N\OCCCOc2ccccc2)[C@H](C)[C@@H](O)[C@]1(C)O,-,MIC,Mycobacterium avium complex,20039 (clarithromycin-susceptible),-,6.25 µg/mL
CO[C@H]1/C=C/O[C@@]2(C)Oc3c(C)c(O)c4c(O)c(c5c(c4c3C2=O)NC2(CCN(CC(C)C)CC2)N=5)=NC(=O)/C(C)=C\C=C\[C@H](C)[C@H](O)[C@@H](C)[C@@H](O)[C@@H](C)[C@H](OC(C)=O)[C@@H]1C,-,MIC50,Mycobacterium avium intracellulare,21 strains,-,0.25 µg/mL
CCCCN1C(=O)N(c2ccc(F)cc2)C(=O)C[C@H]1C1OC2OC(C)(C)OC2[C@H]1Oc1ccccc1,-,MIC,Mycobacterium aurum,-,-,>25 µg/mL
Cc1nc(Nc2ccc(Oc3cccc(C(F)(F)F)c3)cc2)c2ccccc2n1,luminescence,MIC50,Mycobacterium bovis BCG,-,-,>20 µM
CCCCCCCN(C(=O)NCc1ccccc1)[C@@H](CC(=O)OCC)C1O[C@@H]2OC(C)(C)O[C@@H]2[C@H]1OC,-,MIC,Mycobacterium aurum,-,-,>25 µg/mL
O=[N+]([O-])c1ccc(COc2ccc(-c3n[nH]c(C(F)(F)F)c3-c3ccc(Br)cc3)c(O)c2)cc1,visual reading,MIC,Mycobacterium marinum,-,-,12.5 µg/mL
CO[C@@]1(NC(=O)Cc2ccccc2)C(=O)N2C(C(=O)O)=C(COC(C)=O)CSC21,-,MIC,Mycobacterium fortuitum,4-May,-,50 µg/mL
Cc1ccn2c(C(=O)NCc3ccc(N4CCN(c5ccc(C(F)(F)F)cn5)CC4)c(F)c3)c(C)nc2c1,resazurin,MIC,Mycobacterium intracellulare,-,-,<2 µM